PMC5098743

Molecular target: LN40 Env wt (HIV-1)

“Soluble CD4 (from UniProt P01730) (receptor)” was tested, and the inhibition by sCD4 of infection of HeLa TZM-bl cells by Env+ pseudovirus (blocks Env with cell CD4): IC50 fold change from LN40wt was 1 fold.
